{
  "source": "paper PMC12366332",
  "about": "(Applied and Environmental Microbiology, 2025)",
  "system": "X. fastidiosa subsp. fastidiosa IVIA 5387.2",
  "data": [
    {"smiles": "CC[C@H](C)[C@H](NC(=O)CNC(=O)[C@H](C)NC(=O)[C@@H]1CCCN1C(=O)CNC(=O)[C@H](C)NC(=O)[C@H](CC(C)C)NC(=O)[C@H](Cc1ccc(O)cc1)NC(=O)[C@H](CCCCN)NC(=O)[C@H](CC(C)C)NC(=O)[C@@H](NC(=O)[C@H](CCCCN)NC(=O)[C@H](CCCCN)NC(=O)[C@H](Cc1ccccc1)NC(=O)[C@H](CC(C)C)NC(=O)[C@H](CCCCN)NC(=O)[C@@H](N)CCCCN)[C@@H](C)CC)C(=O)NCC(=O)N[C@@H](CCCCN)C(=O)N[C@@H](Cc1ccccc1)C(=O)N[C@@H](CC(C)C)C(=O)N[C@@H](Cc1c[nH]cn1)C(=O)N[C@@H](CO)C(=O)N[C@@H](C)C(=O)N[C@@H](CCCCN)C(=O)N[C@@H](CCCCN)C(=O)N[C@@H](CC(=O)O)C(=O)N[C@@H](CCC(=O)O)C(=O)N[C@@H](CC(C)C)C(=O)O", "note": "[BP178]", "values": [
      {"measurement": "Bactericidal activity Level", "result": "Very High (key: Very High: very high bactericidal activity (>2.5 log); High: high bactericidal activity (between 2.0 and 2.5 log); Moderate: a moderate activity (between 1.5 and 2.0 log); Low: low active (<1.5 log))"},
      {"measurement": "Bactericidal activity Reduction in viability (Log N0/N)", "setting": "12.5 µM", "result": "high activity"}
    ]}
  ]
}
